Assays:
[1] = system: A549 (ATCC CCL-185) lung epithelial cell line; assay: Cytotoxicity assay in monolayer by resazurin colorimetric method; assay type: cell-based, human; settings: for Calculated SI C. albicans: A549 IC50 versus MIC90 of C. albicans; for Calculated SI C. glabrata: A549 IC50 versus MIC90 of C. glabrata; for Calculated SI C. krusei: A549 IC50 versus MIC90 of C. krusei; for Calculated SI C. neoformans: A549 IC50 versus MIC90 of C. neoformans; for Calculated SI P. brasiliensis: A549 IC50 versus MIC90 of P. brasiliensis; for Calculated SI T. mentagrophytes: A549 IC50 versus MIC90 of T. mentagrophytes; for Calculated SI T. rubrum: A549 IC50 versus MIC90 of T. rubrum
[2] = system: MRC-5 (ATCC CCL-171) pulmonary fibroblast cell line; settings: for Calculated SI C. albicans: MRC-5 IC50 versus MIC90 of C. albicans; for Calculated SI C. glabrata: MRC-5 IC50 versus MIC90 of C. glabrata; for Calculated SI C. krusei: MRC-5 IC50 versus MIC90 of C. krusei; for Calculated SI C. neoformans: MRC-5 IC50 versus MIC90 of C. neoformans; for Calculated SI T. rubrum: MRC-5 IC50 versus MIC90 of T. rubrum

CS(=O)(=O)c1ccc(C(=O)/C=C/c2ccc([N+](=O)[O-])o2)cc1 [Compound 15, (E)-1-(4-(methylsulfonyl)phenyl)-3-(5-nitrofuran-2-yl)prop-2-en-1-one]
Calculated SI C. albicans [1]: 0.13
Calculated SI C. glabrata [1]: 0.13
Calculated SI C. krusei [1]: 0.13
Calculated SI C. neoformans [1]: 0.13
Calculated SI P. brasiliensis [1]: 8.77
Calculated SI T. mentagrophytes [1]: 4.38
Calculated SI T. rubrum [1]: 4.38
Calculated SI C. albicans [2]: 0.04
Calculated SI C. glabrata [2]: 0.04
Calculated SI C. krusei [2]: 0.04
Calculated SI C. neoformans [2]: 0.04
Calculated SI T. rubrum [2]: 1.47

O=C(/C=C/c1ccccc1)OCc1ccc([N+](=O)[O-])o1 [Compound 1]
Calculated SI C. albicans [1]: 64.10
Calculated SI C. glabrata [1]: 32.01
Calculated SI C. krusei [1]: 8.00
Calculated SI C. neoformans [1]: 8.00
Calculated SI P. brasiliensis [1]: 64.10
Calculated SI T. mentagrophytes [1]: 16.02
Calculated SI T. rubrum [1]: 1.00
Calculated SI C. albicans [2]: 61.66
Calculated SI C. glabrata [2]: 30.79
Calculated SI C. krusei [2]: 7.69
Calculated SI C. neoformans [2]: 7.69
Calculated SI T. rubrum [2]: 0.96
